Test results taken from publication PMC12590632, “Identification and characterization of a nonpeptidic cyclophilin ligand with antiviral activity against feline and porcine α-coronaviruses” (Veterinary Research, 2025).

Protein sequences, listed by entry. Tags and fused reporters are not part of them.
UniProt P62937, whole entry: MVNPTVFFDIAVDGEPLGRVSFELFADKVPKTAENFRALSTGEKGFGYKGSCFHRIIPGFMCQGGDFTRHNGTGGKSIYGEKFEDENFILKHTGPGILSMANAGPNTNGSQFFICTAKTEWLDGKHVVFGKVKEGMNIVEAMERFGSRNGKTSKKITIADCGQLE

The compounds below were run on FIPV (strain 79-1146) in CRFK cells (assay: SMCypI screening for FIPV infection, viral titre by end-point dilution). Settings: 50 µM SMCypI, MOI 1, 24 h.
Assay type: cell-based, feline infectious peritonitis virus

Structure (SMILES)	Inhibition of FIPV titre
COc1cc(OC)c(C(NC(=O)NCc2ccc(N)cc2)C(=O)N2CCCC2c2ccccc2SC)cc1Br (centres unmarked)	low antiviral potency
CSc1ccccc1C1CCCN1C(=O)C(NC(=O)NCc1ccc(N)cc1)C1CCCCC1 (centres unmarked)	low antiviral potency
CSc1ccccc1C1CCCN1C(=O)C(NC(=O)NCc1ccc(N)cc1)c1ccccc1 (centres unmarked)	low antiviral potency

Each compound was assayed against Human cyclophilin A (Homo sapiens, UniProt P62937) (assay: PPIase enzyme assay (chymotrypsin-coupled)). Settings: read-out: IC50 of PPIase, 20 °C, mean ± SD of two or more experiments.
Assay type: biochemical

Structure (SMILES)	IC50
CSc1ccccc1C1CCCN1C(=O)C(NC(=O)NCc1ccc(N)cn1)c1ccccc1 (centres unmarked)	6.9 µM
COc1ccc(OC)c(C(NC(=O)NCc2ccc(N)cc2)C(=O)N2CCCC2c2cccc3ccsc23)c1 (centres unmarked)	1.5 µM
CCOc1cccc(C(NC(=O)NCc2ccc(N)cc2)C(=O)N2CCCC2c2ccccc2SC)c1 (centres unmarked)	1 µM
CSc1ccccc1C1CCCN1C(=O)C(NC(=O)NCc1cccc2ncccc12)c1ccccc1 (centres unmarked)	> 10 µM
CSc1ccccc1C1CCCN1C(=O)C(NC(=O)NCc1ccc(N)cc1)c1cccs1 (centres unmarked)	> 10 µM
